PMC9400670, “Establishing the selective phospholipid membrane coordination, permeation and lysis properties for a series of ‘druggable’ supramolecular self-associating antimicrobial amphiphiles” (Chemical Science, 2022)

Tests used:
Type in all cases: binding
Conditions in all cases: SSA 100 µM; Hill Plot fit, Vmax fixed 100 %
PC nanodiscs = test: Phospholipid nanodisc 1H NMR CPMG coordination assay, PC nanodiscs
Source text: (§1) Finally, to establish how any single SSA structural variation affects the coordination of an individual salt component to the surface of a phospholipid membrane, the binding of the anionic and cationic components of SSAs 5–12 with nanodiscs comprised of PC, PG or the PE : PG mix (Table 2) was studied. Nanodiscs were synthesised from synthetic vesicles of the relevant phospholipid composition. For full synthetic procedures and nanodisc characterisation please see ESI (Section 13). ^†[34,35]
(§2) Styrene-maleic acid (SMA) nanodiscs are small biomimetic scaffolds with a hydrodynamic diameter ≈ 10 nm. They consist of a single disc-shaped planar phospholipid bilayer, ‘belted’ in this instance with a synthetic SMA co-polymer. Here nanodiscs of a specific phospholipid composition were titrated against a solution of SSAs 5–12 (0.10 mM) in a sodium phosphate buffer (20 mM) with NaCl (20 mM) at pH 7.4. This solution was supplemented with 5% D2O, to enable NMR locking and 4,4-dimethyl4-silapentane-1-sulfonic acid (DSS – 0.02 mM) to act as an internal standard. The nanodiscs were then titrated against the SSA, while the SSA concentration was maintained as constant, well below the CMC (Table 3).[38] A 1D ^1H NMR with a Carr–Purcell–Meiboom–Gill sequence (CPMG) filter (300 ms),[36,48] modified with a watergate element was then obtained for each experimental data point. The watergate element was used to allow suppression of the water signal, whereas the CPMG filter enabled the suppression of those resonances from molecular species with long correlation times, which in this instance correlate to the signals of those SSAs coordinated to the nanodisc, rather than those which exist as free species in solution. Comparative integration of the resonances corresponding to the SSA cation or anion, standardised against the DSS internal standard, permits the percentage of the individual SSA components coordinated to the phospholipid nanodisc to be established with respect to increasing nanodisc concentration.
(§3) However, when considering the 1/EC50 for the SSA cationic component (Fig. 10b), the reverse is true. This is perhaps expected, but nevertheless despite the identical experimental conditions, including the same TBA counter cation across SSAs 5–12, there is a marked difference in the 1/EC50 obtained, where the only difference is the SSA anion present. This is most noticeable for the series of SSA titrations involving the PE : PG mix (Table 2) nanodiscs. The only variation within this set of titrations is the structure of the SSA anion; we therefore conclude that the SSA anion is influencing SSA cation nanodisc coordination events. This observation provides evidence for the presence of further complex interactions informing SSA:nanodisc coordination processes. […]
(§4) Data were acquired in endpoint mode. All experiments were repeated in triplicate […]
(§5) Nanodisc preparation: Lipid films were resuspended in Buffer (20 mM NaCl, 20 mM NaH 2PO4, pH 7.4) and sonicated for 1 hour, at a 5:1 ratio, SMA was added and incubated at 37 °C for 1 hour. Dialysed overnight in 5 L of the same buffer in 10 KDa cut-off dialysis tubing, concentrated, and underwent gel filtration size exclusion chromatography on a Superdex 200 10/300 GL column (GE Healthcare) in the same buffer, whilst monitoring absorbance at 260 nm. Nanodisc quantification carried out via monitoring of absorbance at 260 nm using a calibration curve.2
(§6) 1H NMR CPMG: 1H NMR CPMG3,4 spectra were obtained with a Bruker Avance III […] spectrometer equipped with a TCIP cryoprobe at 298 K. Samples were supplemented with 5 % D 2O and 0.02 mM 4,4-dimethyl4-silapentane-1-sulfonic acid (DSS). The standard zgprcpmg pulse sequence from the Bruker library was modified with a watergate element to allow suppressi on of the water signal and was used for all experiments. Although this sequence is readily obtainable, we are happy to provide it on request. The P1 pulses were 9 µs at a power of 7.9 W. Presaturation was applied between […]

PE:PG mix nanodiscs = test: Phospholipid nanodisc 1H NMR CPMG coordination assay, PE:PG mix nanodiscs
Source text: as §1, §2, §3, §4, §5, §6

PG nanodiscs = test: Phospholipid nanodisc 1H NMR CPMG coordination assay, PG nanodiscs
Source text: as §1, §2, §3, §4, §5, §6

Row | SMILES | hill coefficient (n) PC, anionic SSA component (PC nanodiscs) | hill coefficient (n) PE:PG mix, anionic SSA component (PE:PG mix nanodiscs) | hill coefficient (n) PG, cationic SSA component (PG nanodiscs) | hill coefficient (n) PC, cationic SSA component (PC nanodiscs) | hill coefficient (n) PE:PG mix, cationic SSA component (PE:PG mix nanodiscs) | hill coefficient (n) PG, anionic SSA component (PG nanodiscs)
1 | O=C(NCS(=O)(=O)O)Nc1ccc(-c2nc3ccccc3s2)cc1 [SSA 8] | 1.06 | 0.98 | 1.35 |  |  | 
2 | Cc1ccc2nc(-c3ccc(NC(=O)NCCCS(=O)(=O)O)cc3)sc2c1 [SSA 10] | 1.80 | 1.25 | 0.67 | 1.27 | 0.95 | 1.47
3 | Cc1ccc2nc(-c3ccc(NC(=S)NCS(=O)(=O)O)cc3)sc2c1 [SSA 12] | 2.65 | 1.44 | 0.75 | 0.42 | 0.62 | 1.51
4 | Cc1ccc2nc(-c3ccc(NC(=O)NCCC(=O)O)cc3)sc2c1 [SSA 9] | 1.43 | 3.76 | 1.34 | 0.71 |  | 3.29
5 | Cc1ccc2nc(-c3ccc(NC(=O)NCS(=O)(=O)O)cc3)sc2c1 [SSA 6] | 1.84 | 1.85 | 0.93 |  | 0.70 | 1.60
6 | Cc1ccc2nc(-c3ccc(NC(=O)NCC(=O)O)cc3)sc2c1 [SSA 11] | 1.10 | 1.69 | 1.45 |  | 0.87 | 2.41
7 | O=C(NCS(=O)(=O)O)Nc1ccccc1-c1nc2ccccc2s1 [SSA 5] |  | 2.05 | 1.11 |  | 1.60 | 
8 | Cc1ccc2nc(NC(=O)NCS(=O)(=O)O)sc2c1 [SSA 7] |  |  | 1.20 |  | 0.81 | 
